These results are taken from patent publication US20100196919A1, “PEPTIDES, ANTIBODIES AND FRAGMENTS THEREOF FOR THE TREATMENT AND DIAGNOSTIC OF CELIAC DISEASE” (UNIVERSITÀ DEGLI STUDI DI VERONA, priority 2007, published 2010).

Holding throughout (type): binding, human
Series [1] concerns serum IgA. Put plainly: ELISA for serum IgA antibodies against the synthetic peptides. For orientation: ELISA stands for enzyme-linked immunosorbent assay.
For series [2], the system named is serum IgA. As to the kind of experiment: DELFIA for serum IgA antibodies against the celiac peptide. As to conditions: 60 controls' sera.
A further series relates to serum IgG antibodies. As to the kind of experiment: ELISA for serum IgG antibodies against the synthetic peptides. As to conditions: 60 patients with CD.

Turning to VVKVGGSSSLGW [celiac peptide], the “patients whose serum IgA recognized the peptide” value was 68% with serum IgA [1] (22 patients with active disease on GCD (15 out of 22), direct and competitive ELISA); “four” in the series on serum IgA [1] (the same 22 patients on GFD, number of 22). Also, in the series with serum IgA [1] (40 out of 40 patients with Crohn disease), the “IgA reactivity against the peptide” value was “not detected”. Also, the “IgA reactivity towards the peptide” value in the series on serum IgA [1] (50 out of 50 patients with systemic lupus erythematosus) and in the series on serum IgA [1] (90 out of 90 patients with systemic sclerosis) was “not detected” throughout. The “patients' sera with reactivity against the synthetic peptide” value in the series with serum IgA [1] (ELISA at end of library screening, individual patients' sera, isotype not stated) is “approximately 65%”. Also, the “patients with serum IgA against the peptide” value with serum IgA [1] (another group of 38 patients with active disease (25 individuals)) is 65.7%. The “IgA reactivity to the peptide” value in the series with serum IgA [2] is listed as “absent”. Further, the “frequency of IgG antibodies against the peptide” value in the series on serum IgG antibodies stood at 68.3%.
